The results in this text go back to US20040002582A1 (University of Texas, published 2004).

For this assay, the target named is T1, OHF-E-D3 (Omsk hemorrhagic fever virus), Q7T6D2.
T1 chain: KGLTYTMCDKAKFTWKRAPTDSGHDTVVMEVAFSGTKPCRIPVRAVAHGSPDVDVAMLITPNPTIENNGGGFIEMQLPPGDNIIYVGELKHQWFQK

B1: MP-100C (designed binder)
peptide: RCCHPQCKEGKKCR
modifications: not checked
The Kd is the concentration at which binding is half-saturated. Low readings indicate tighter binding, high ones weaker binding. B1: the equilibrium dissociation constant (Kd) is 30 µM.

B2: MP-100N (designed binder)
peptide: RCCHPQCKEGKKCR
modifications: not checked
Take B2: the Kd was determined as 16 µM.
